# From PMC12356973
# The exact form of at least one protein or probe is not confirmed. At least one verdict was read from the data and is not stated in words by the source.
# Target: nsp14 (Fe-S, two [Fe4S4] + one Zn, anoxic purification) (SARS-CoV-2) (UniProt P0DTD1)
# Test: EMSA
# Conditions: untreated, [Fe4S4]2+ resting state; 5'-triphosphate; recombinant protein; protein details: C-terminal 2xStrep II
sequence,measurement,value
AUUAAAGGUU [RNA-1 (5'-ppp RNA)],binding result,binds
